Pooled drug test results. Numbers come from NIAID ChemDB, via PubChem.

All rows: host cell toxicity; cells: C8166; read by: MTT; endpoint: CC50

Rows are shuffled and stem from different studies. CCn is the concentration with n% toxicity to the cells.

SMILES,result
CN1CCN(c2ccnc3nc(CN(CCCCN)Cc4ncc(F)cc4F)[nH]c23)CC1,>10 µM
CC1=C[C@H]2[C@@]3(O)[C@H](C)[C@@H](OC(=O)/C=C/c4ccccc4)[C@]4(O)[C@H]([C@@H]3C=C(COC(=O)/C=C/c3ccccc3)C[C@]2(O)C1=O)C4(C)C,>200 µM
C/C(=N\NC(=O)c1ccccc1)c1cn(S(=O)(=O)c2cccc([N+](=O)[O-])c2)c2cc(C)ccc12,>200 µg/mL
C=C(C)[C@@]12OC3(C)O[C@@H]1[C@@H]1[C@H](O)[C@@](C)(O)[C@@H](OCc4ccccc4)[C@@]4(O)[C@@H](C[C@H](C)[C@@H]4OC(C)=O)[C@@]1(O3)[C@H](C)[C@@H]2OCc1ccccc1,>0.289 µM
CC(=O)OCC1=C[C@H]2[C@@H]3C(C)(C)[C@]3(OC(C)=O)[C@H](OC(=O)CCCCn3ccc(=O)n(CCCOC(=O)[C@]45CCCC[C@H]4C4=CC[C@@H]6[C@@]7(C)CC[C@H](O)C(C)(C)[C@@H]7CC[C@@]6(C)[C@]4(C)CC5)c3=O)[C@@H](C)[C@]2(O)[C@@H]2C=C(C)C(=O)[C@@]2(O)C1,>200 µM
CCc1cccnc1CN(C)Cc1nc2nccc(N3CCN(C)CC3)c2[nH]1,>10 µM
CC(=O)OCC1=C[C@H]2[C@@H]3C(C)(C)[C@]3(O)[C@H](OC(=O)CCc3ccccc3)[C@@H](C)[C@]2(O)[C@@H]2C=C(C)C(=O)[C@@]2(O)C1,118.8 µM
CN1CCN(c2ccnc3nc(CN(CCCCN)Cc4nccn4C)[nH]c23)CC1,>10 µM
CC1=C[C@H]2[C@@]3(O)[C@H](C)[C@@H](OC(=O)/C=C/c4ccccc4)[C@]4(OC(=O)/C=C/c5ccccc5)[C@H]([C@@H]3C=C(COC(=O)/C=C/c3ccccc3)C[C@]2(O)C1=O)C4(C)C,>200 µM
C=C(C)[C@@]1(O)[C@@H]2OC3(C)O[C@H]1[C@@H](C)[C@@]1(O3)[C@H]2[C@H](OCc2ccccc2)[C@@]2(C)O[C@@]3([C@H]1C[C@H](C)[C@@H]3OC(C)=O)[C@@H]2OCc1ccccc1,>0.2967 µM
COC(=O)CCc1cccnc1CN(C)Cc1nc2ccccc2[nH]1,>10 µM
Cc1ccc(S(=O)(=O)n2cc(/C=N/NC(=O)c3ccccc3)c3cc([N+](=O)[O-])ccc32)cc1,73.09 µg/mL
CCCCCCCCC(=O)O[C@@H]1[C@@H](C)[C@@]2(O)[C@@H](C=C(CO)C[C@]3(O)C(=O)C(C)=C[C@@H]23)[C@@H]2C(C)(C)[C@]12OC(=O)CCCCC1SCC2NC(=O)NC21,16.4 µM
O=C(N/N=C/c1cn(S(=O)(=O)c2ccc(Cl)cc2)c2ccccc12)c1ccccc1,53.15 µg/mL
C=C(C)[C@@]12OC3(C)O[C@@H]1[C@@H]1[C@H](O)[C@@](C)(O)[C@@H](OC(C)=O)[C@@]4(O)[C@@H](C=C(C)[C@@H]4O)[C@@]1(O3)[C@H](C)[C@@H]2OCc1ccccc1,0.1381 µM
C/C=C/C(=O)OCC1=C[C@H]2[C@@H]3C(C)(C)[C@]3(OC(=O)/C=C/C)[C@H](O)[C@@H](C)[C@]2(O)[C@@H]2C=C(C)C(=O)[C@@]2(O)C1,144 µM
CN(Cc1ncccc1/C=C\C#N)Cc1nc2ccccc2n1Cc1ccccc1,>10 µM
C=C(C)[C@@]1(OCc2ccccc2)[C@H](OC(C)=O)[C@@H]2[C@H](OC(C)=O)[C@@]3(C)O[C@@]4(C(C[C@H](C)[C@@H]4OC(C)=O)[C@@]2(O)[C@H](C)[C@@H]1OC(C)=O)[C@@H]3OC(C)=O,>0.2801 µM
CN(Cc1nc2ccccc2[nH]1)Cc1ncccc1CCC(=O)NCc1ccc(F)cc1,>10 µM
CC(=O)Nc1ccc(S(=O)(=O)n2cc(/C=N/NC(=O)c3ccccc3)c3ccccc32)cc1,18.31 µg/mL
CCCCCCCCCCCCCC(=O)O[C@@H]1[C@@H](C)[C@@]2(O)[C@@H](C=C(CO)C[C@]3(O)C(=O)C(C)=C[C@@H]23)[C@@H]2C(C)(C)[C@]12O,23.9 µM

Repeating the final 2 entries:

SMILES	result
CC(=O)Nc1ccc(S(=O)(=O)n2cc(/C=N/NC(=O)c3ccccc3)c3ccccc32)cc1	18.31 µg/mL
CCCCCCCCCCCCCC(=O)O[C@@H]1[C@@H](C)[C@@]2(O)[C@@H](C=C(CO)C[C@]3(O)C(=O)C(C)=C[C@@H]23)[C@@H]2C(C)(C)[C@]12O	23.9 µM